Assay results: patent US6780633B2, “Methods for producing optically active amino acids” (Sumitomo Chemical Company, Limited, priority 1999, dated 2004)

Tests used:
Assay type in all cases: cell-based
[1] = test system: Nocardia diaphanozonaria strain JCM3208; assay: conversion of amino acid optical isomers by whole cells (cell suspension); conditions: for % D-form / % L-form: 30° C.
[2] = test system: Pseudomonas oxalaticus strain IFO13593; assay: conversion of p-chlorophenylalanine isomers by wet cells; conditions: 0.1% (w/v) substrate, pH 7.0, 30° C., incubation 48 h
[3] = test system: Pseudomonas oleovorans strain IFO13583; assay: as above; conditions: 0.1% (w/v) substrate, pH 7.0, 30° C., incubation 48 h
[4] = test system: Pseudomonas chlororaphis strain IFO3521; assay: as above; conditions: 0.1% (w/v) substrate, pH 7.0, 30° C., incubation 72 h
[5] = test system: Rhizobium meliloti strain IFO14782; assay: as above; conditions: 0.1% (w/v) substrate, pH 7.0, 30° C., incubation 48 h
[6] = substrate D-form, incubation 47 h
[7] = substrate L-form, incubation 72 h
[8] = substrate L-form, incubation 48 h
[9] = substrate D-form, incubation 70 h
[10] = substrate racemic mixture, incubation 72 h
[11] = substrate D-form, incubation 48 h
[12] = substrate racemic mixture, incubation 48 h

SMILES: CC(C)(C)[C@H](N)C(=O)O [tert-Leucine]
- % D-form [1, 6]: 93%
- % L-form [1, 6]: 7%
- % D-form [1, 7]: 0%
- % L-form [1, 7]: 100%

SMILES: CCC(N)C(=O)O (stereo not drawn) [α-Aminobutyric acid]
- % D-form [1, 8]: 0%
- % L-form [1, 8]: 100%

SMILES: CCC(N)C(=O)O (racemic) [2-aminobutyric acid]
- % D-form [1, 9]: 38%
- % L-form [1, 9]: 62%
- % D-form [1, 10]: 30%
- % L-form [1, 10]: 70%

SMILES: CCC[C@H](N)C(=O)O (racemic) [Norvaline]
- % D-form [1, 11]: 1%
- % L-form [1, 11]: 99%
- % D-form [1, 7]: 0%
- % L-form [1, 7]: 100%
- % D-form [1, 12]: 4%
- % L-form [1, 12]: 96%

SMILES: N[C@H](Cc1ccc(Cl)cc1)C(=O)O [D-p-chlorophenylalanine]
- % D-form [2]: 25%
- % L-form [2]: 75%
- % D-form [3]: 11%
- % L-form [3]: 89%
- % L-form [4]: 94%
- % D-form [5]: 16%

SMILES: CSCC[C@H](N)C(=O)O (racemic) [methionine]
- % D-form [1, 9]: 61%
- % L-form [1, 9]: 39%
- % D-form [1, 8]: 0%
- % L-form [1, 8]: 100%
- % D-form [1, 10]: 31%
- % L-form [1, 10]: 69%

SMILES: N[C@@H](Cc1ccc(Cl)cc1)C(=O)O [L-p-chlorophenylalanine]
- % D-form [2]: 0%
- % L-form [2]: 100%
- % D-form [3]: 0%
- % L-form [3]: 100%
- % L-form [4]: 100%
- % D-form [5]: 0%
- formation of D-p-chlorophenylalanine (HPLC analysis of products) ([1]; L-form as substrate, procedure of Example 1, 30° C., 74 hours): no formation of D-p-chlorophenylalanine

SMILES: NC(C(=O)O)c1ccccc1 (racemic) [phenylglycine]
- % D-form [1, 9]: 2%
- % L-form [1, 9]: 98%
- % D-form [1, 7]: 0%
- % L-form [1, 7]: 100%
- % D-form [1, 12]: 0%
- % L-form [1, 12]: 100%
